A mixed list of measured activities; the numbers were collected in NIAID ChemDB.

Shared fields: tests in culture; species: Mycobacterium tuberculosis

ECn is the concentration giving n% inhibition of infection, replication or growth. MIC bound: limit read from a one-dose screen. Conditions beyond the fields shown may differ between rows. Percent inhibition refers to the dose given; in toxicity tests it is the harm to the cells. An empty or dashed field is not shown.

{"SMILES": "CC(=O)CC(=O)Nc1cccc(C)n1", "strain": "H37Rv", "endpoint": "MIC", "value": ">100 µg/mL"}
{"SMILES": "CCOC(=O)Nc1cc2[nH]c(-c3ccc(OC)cc3)nc2c(N)n1", "strain": "H37Rv", "endpoint": "EC50", "value": ">12.5 µg/mL"}
{"SMILES": "O=c1ccc2ccccc2o1", "strain": "H37Rv", "endpoint": "MIC", "value": ">100 µg/mL"}
{"SMILES": "COC1OC2COC(C)(C)OC2C1NS(=O)(=O)Cc1ccccc1", "read by": "BACTEC", "strain": "H37Rv", "endpoint": "MIC bound", "value": ">12.5 µg/mL"}
{"SMILES": "CC(CNCCNCCc1ccc(Cl)cc1Cl)c1ccccc1", "endpoint": "MIC", "value": "25 µM"}
{"SMILES": "C[C@@H]1[C@H]2C[C@@H](C[C@H]1NCCNCCC(c1ccccc1)c1ccccc1)C2(C)C", "endpoint": "MIC", "value": "12.5 µM"}
{"SMILES": "Cc1ccc(O)c(N)c1", "strain": "H37Rv", "endpoint": "MIC", "value": ">100 µg/mL"}
{"SMILES": "O=c1[nH]c(=O)c2[nH]c(=O)n(-c3ccc(Cl)cc3)c2[nH]1", "read by": "BACTEC", "strain": "H37Rv", "endpoint": "MIC bound", "value": ">12.5 µg/mL"}
{"SMILES": "OCc1ccccc1Sc1ccccc1CNCCNCCCCc1ccccc1", "endpoint": "MIC", "value": "25 µM"}
{"SMILES": "CCOC(=O)Nc1cc(N)c2[nH]cnc2n1", "strain": "H37Rv", "endpoint": "EC50", "value": ">12.5 µg/mL"}
{"SMILES": "CCOC(=O)c1ccc(N)c(N)c1", "strain": "H37Rv", "endpoint": "MIC", "value": "100 µg/mL"}
{"SMILES": "CCOc1ccccc1CNCCNCCc1ccc(Cl)cc1Cl", "endpoint": "MIC", "value": "25 µM"}
{"SMILES": "CO[C@H]1/C=C/O[C@@]2(C)Oc3c(C)c(O)c4c(=O)c(c5oc6cc(N7CCN(C(C)C)CC7)cc(=O)c6nc5c4c3=C2O)NC(=O)/C(C)=C\\C=C\\[C@H](C)[C@H](O)[C@@H](C)[C@@H](O)[C@@H](C)[C@H](OC(C)=O)[C@@H]1C", "strain": "2983 (rifampin-sensitive)", "endpoint": "MIC", "value": "0.006 µg/mL"}
{"SMILES": "COc1cc2c(cc1OC)CN1CCc3cc(OC)c(OC)cc3C1C2", "read by": "BACTEC", "dose": "128 µg/mL", "strain": "H37Rv", "endpoint": "inhibition", "value": "96%"}
{"SMILES": "CCCCCC(C)NCCNCCc1ccc(Cl)cc1Cl", "endpoint": "MIC", "value": "25 µM"}
{"SMILES": "OC1(CNCCNCCCCc2ccccc2)CCCCC1", "endpoint": "MIC", "value": "25 µM"}
{"SMILES": "CCOc1ccc(N2CCOC2=O)cc1", "strain": "H37Rv", "endpoint": "MIC", "value": ">100 µg/mL"}
{"SMILES": "CCN(CCO)CCNc1ccc(C)c2sc3c(Cl)cccc3c(=O)c12", "read by": "BACTEC", "strain": "H37Rv", "endpoint": "MIC", "value": "≥12.5 µg/mL"}
{"SMILES": "COC(=O)C1CC(c2ccccc2)Nc2cc(C)ccc21", "strain": "H37Rv", "endpoint": "MIC", "value": ">100 µg/mL"}
{"SMILES": "NC[C@H]1O[C@H](O[C@H]2[C@H](O)[C@@H](O[C@H]3O[C@H](CO)[C@@H](O)[C@H](N)[C@H]3O)[C@H](N)C[C@@H]2N)[C@H](O)[C@@H](O)[C@@H]1O", "strain": "TN2793", "endpoint": "MIC", "value": "32 µg/mL"}
{"SMILES": "CS(=O)(=O)OCCN(CCOS(C)(=O)=O)c1ccc(C=Nc2ccc3ccccc3c2)c(Cl)c1.Cl", "read by": "BACTEC", "dose": "12.5 µg/mL", "strain": "H37Rv", "endpoint": "inhibition", "value": "0%"}
{"SMILES": "NCCNC(N)=O", "strain": "H37Rv", "endpoint": "MIC", "value": ">100 µg/mL"}
{"SMILES": "C=CC[N+]12CC=C3COC(=O)C(C)(O)C(C)(O)C(C)C(=O)OC(CC1)C32.[Br-]", "read by": "BACTEC", "strain": "H37Rv", "endpoint": "MIC bound", "value": ">12.5 µg/mL"}
{"SMILES": "O=C(O)CCC(=O)/C=C/c1ccccc1", "strain": "H37Rv", "endpoint": "MIC", "value": ">100 µg/mL"}
{"SMILES": "CSC(=S)N(C)NC(=O)c1cccc(C(=O)NN(C)C(=S)SC)n1", "read by": "resazurin", "dose": "6.25 µg/mL", "strain": "H37Rv", "endpoint": "inhibition", "value": "27%"}
{"SMILES": "CCCCCCCCCCCCSCCCCCCCCCCCC", "strain": "H37Rv", "endpoint": "MIC", "value": ">100 µg/mL"}
{"SMILES": "O=c1cc(O)cnn1[C@@H]1O[C@H](CO)[C@@H](O)[C@H]1O", "read by": "BACTEC", "dose": "12.5 µg/mL", "strain": "H37Rv", "endpoint": "inhibition", "value": "-2%"}
{"SMILES": "C1=C(CCNCCNCCC2=CCCCC2)CCCC1", "endpoint": "MIC", "value": "12.5 µM"}
{"SMILES": "Nc1nc(Cl)cc(Cl)n1", "strain": "H37Rv", "endpoint": "MIC", "value": ">100 µg/mL"}
{"SMILES": "O=C(CCSCCC(=O)N/N=C(\\CO)C(O)C(O)C(O)CO)N/N=C(\\CO)C(O)C(O)C(O)CO", "read by": "BACTEC", "dose": "12.5 µg/mL", "strain": "H37Rv", "endpoint": "inhibition", "value": "15%"}
{"SMILES": "COc1ccc(OC)c(CCNCCNCCC2=CCCCC2)c1", "endpoint": "MIC", "value": "12.5 µM"}
{"SMILES": "COc1cc2c3cc1OCc1c(O)c(OC)cc4c1[C@H](Cc1ccc(cc1)Oc1cc(ccc1O)C[C@H]3N(C)CC2)N(C)CC4", "read by": "BACTEC", "strain": "H37Rv", "endpoint": "MIC bound", "value": ">12.8 µg/mL"}
{"SMILES": "C[C@H](NCCNCCCCc1ccccc1)C1CCCCC1", "endpoint": "MIC", "value": "50 µM"}
{"SMILES": "O=c1cc[nH]c2ccc([N+](=O)[O-])cc12", "strain": "H37Rv", "endpoint": "MIC", "value": ">100 µg/mL"}
{"SMILES": "CO[C@H]1/C=C/O[C@@]2(C)Oc3c(C)c(O)c4c(O)c(c(/C=N/N5CCN(C/C=C/c6ccccc6)CC5)c(O)c4c3C2=O)NC(=O)/C(C)=C\\C=C\\[C@H](C)[C@H](O)[C@@H](C)[C@@H](O)[C@@H](C)[C@H](OC(C)=O)[C@@H]1C", "strain": "2624 (rifampin-sensitive)", "endpoint": "MIC", "value": "0.025 µg/mL"}
{"SMILES": "O=[N+]([O-])c1ccc(O)c(N=Cc2ccccc2O)c1", "strain": "H37Rv", "endpoint": "MIC", "value": ">100 µg/mL"}
{"SMILES": "COCCn1c2nc(=O)n(-c3ccccc3)c(=O)c-2nc2c1CCCC2", "read by": "BACTEC", "dose": "12.5 µg/mL", "strain": "H37Rv", "endpoint": "inhibition", "value": "0%"}
{"SMILES": "O=C1c2ccccc2C(=O)c2c1ccc(Br)c2Br", "strain": "H37Rv", "endpoint": "MIC", "value": ">100 µg/mL"}
{"SMILES": "O=C1CN(/N=C/c2ccc(-c3ccc(Cl)c(Cl)c3)o2)C(=O)N1", "read by": "BACTEC", "dose": "12.5 µg/mL", "strain": "H37Rv", "endpoint": "inhibition", "value": "63%"}
{"SMILES": "CCCCC(CC)CN1CN(CC(CC)CCCC)CC(C)(NCCNC2CCCC(C)C2C)C1", "endpoint": "MIC", "value": "50 µM"}
{"SMILES": "c1ccc(CCCc2ccccn2)cc1", "strain": "H37Rv", "endpoint": "MIC", "value": "100 µg/mL"}
{"SMILES": "CCOC(=O)c1cc2c3c(c(C(C)=O)c(O)c2[nH]1)N(C(C)=O)CC3", "read by": "BACTEC", "dose": "12.5 µg/mL", "strain": "H37Rv", "endpoint": "inhibition", "value": "0%"}
{"SMILES": "CCCCCCCCCCCCCCCCNC(=O)c1cccnc1", "strain": "H37Rv", "endpoint": "MIC", "value": ">100 µg/mL"}
{"SMILES": "CCCCC(=O)OC[n+]1ccc2c(C)c3[nH]c4ccccc4c3c(C)c2c1", "read by": "resazurin", "dose": "6.25 µg/mL", "strain": "H37Rv", "endpoint": "inhibition", "value": "64%"}
{"SMILES": "CCOC(=O)Nc1cc(NCC(=O)c2ccc(-c3ccccc3)cc2)c([N+](=O)[O-])c(N)n1", "strain": "H37Rv", "endpoint": "EC50", "value": ">12.5 µg/mL"}
{"SMILES": "COC(=O)C(C(=O)C(=O)NC1=C(Cl)C(=O)c2ccccc2C1=O)c1csc(-n2nc(-c3ccccc3)cc2-c2ccccc2)n1", "read by": "BACTEC", "dose": "12.5 µg/mL", "strain": "H37Rv", "endpoint": "inhibition", "value": "21%"}
{"SMILES": "CC(Br)C(=O)Nc1ccc(S(=O)(=O)NCCO)cc1", "strain": "H37Rv", "endpoint": "MIC", "value": ">100 µg/mL"}
{"SMILES": "NNC(=O)C1=NN(c2ccccc2)C(=O)C1", "read by": "BACTEC", "strain": "H37Rv", "endpoint": "MIC", "value": "≥12.5 µg/mL"}
{"SMILES": "CCOC(=O)Nc1cc(NCc2ccc(S(N)(=O)=O)cc2)c2nc(-c3ccccc3)c(-c3ccccc3)nc2n1", "cells": "VERO", "strain": "H37Rv", "endpoint": "EC50", "value": "<12.5 µg/mL"}
{"SMILES": "Cc1ccccc1OCC(=O)O", "strain": "H37Rv", "endpoint": "MIC", "value": ">100 µg/mL"}
{"SMILES": "Brc1ccc(Nc2nnc3nc(-c4ccccc4)c(-c4ccccc4)nn23)cc1", "read by": "BACTEC", "strain": "H37Rv", "endpoint": "MIC bound", "value": "≤12.5 µg/mL"}
{"SMILES": "CC(C)c1ccc2c(c1)CC[C@H]1[C@](C)(CNCCNCC(O)CO)CCC[C@]21C", "endpoint": "MIC", "value": "50 µM"}
{"SMILES": "O=C(NCCO)C(=O)N/N=C/c1ccc([N+](=O)[O-])o1", "strain": "PAS-R", "endpoint": "MIC", "value": "6.3 µg/mL"}
{"SMILES": "CC(Cc1c[nH]c2ccccc12)NCCNC1CCCc2ccccc21", "endpoint": "MIC", "value": "50 µM"}
{"SMILES": "CCCCCCC(N)C(=O)O", "strain": "H37Rv", "endpoint": "MIC", "value": ">100 µg/mL"}
{"SMILES": "C1CCNCC1.S=C(S)N1CCCCC1", "strain": "PZA-R", "endpoint": "MIC", "value": "3.1 µg/mL"}
{"SMILES": "CCCCCCCCCCCCCCCCNc1ccc(CNCCNC[C@@H](C)O)cc1", "endpoint": "MIC", "value": "50 µM"}
{"SMILES": "CC(=O)OC1c2c(ccc3ccccc23)CCC1CN(C)C.Cl", "strain": "H37Rv", "endpoint": "MIC", "value": ">100 µg/mL"}
{"SMILES": "CCOC(=O)Nc1cc2c(ncn2/N=C/c2ccc(OC)cc2)c(N)n1", "strain": "H37Rv", "endpoint": "EC50", "value": ">12.5 µg/mL"}
{"SMILES": "COc1ccc(/C(=C(\\CC(=O)O)C(=O)OC(C)(C)C)c2cc(OC)c(OC)c(OC)c2)cc1OC", "read by": "BACTEC", "dose": "12.5 µg/mL", "strain": "H37Rv", "endpoint": "inhibition", "value": "0%"}
{"SMILES": "CCN(CC)Cc1c(C)[nH]c2cc(OC)ccc2c1=O", "strain": "H37Rv", "endpoint": "MIC", "value": ">100 µg/mL"}

Again, the opening 5 rows:

SMILES | read by | dose | cells | strain | endpoint | value
CC(=O)CC(=O)Nc1cccc(C)n1 | - | - | - | H37Rv | MIC | >100 µg/mL
CCOC(=O)Nc1cc2[nH]c(-c3ccc(OC)cc3)nc2c(N)n1 | - | - | - | H37Rv | EC50 | >12.5 µg/mL
O=c1ccc2ccccc2o1 | - | - | - | H37Rv | MIC | >100 µg/mL
COC1OC2COC(C)(C)OC2C1NS(=O)(=O)Cc1ccccc1 | BACTEC | - | - | H37Rv | MIC bound | >12.5 µg/mL
CC(CNCCNCCc1ccc(Cl)cc1Cl)c1ccccc1 | - | - | - | - | MIC | 25 µM